A mixed list of measured activities; the numbers were collected in NIAID ChemDB.

Shared fields: toxicity to cultured cells; cells: C8166; measure: CC50

Neighbouring rows are from separate reports. CCn is the concentration with n% toxicity to the cells. Blank or dashed fields: not listed here.

structure | method | value
C/C(=N\NC(=O)c1ccccc1)c1cn(S(=O)(=O)c2ccccc2)c2ccc([N+](=O)[O-])cc12 | MTT | 125 µg/mL
CCc1cc(-c2ccc(C(F)(F)F)o2)n(-c2ccc3c(c2)nc(-c2cc(C(=O)N4CCCC4)ccc2O)n3Cc2cc(C)c(=O)n(C)c2)n1 | MTT | 21 µM
NC(=O)[C@H](CCCCNC(=O)CCC(=O)O)NC(=O)[C@H](CCCCNC(=O)CCC(=O)O)NC(=O)[C@H](CCCCNC(=O)CCC(=O)O)NC(=O)c1ccccc1 | XTT | 200 µM
COc1ccc(C)cc1CS(=O)(=O)c1cccc[n+]1[O-] | - | 59 µg/mL
CCCCCCOC(=O)[C@H](C)NP(=O)(OC[C@H]1O[C@@H](n2cc(C)c(=O)[nH]c2=O)C[C@@H]1N=[N+]=[N-])OCC(Cl)(Cl)Cl | - | >100 µM
COc1cc([C@H]2c3cc(O)c(OC)cc3C[C@@H](COC(C)=O)[C@@H]2COC(C)=O)ccc1O | MTT | >200 µg/mL
C/C(=N\NC(=O)c1ccccc1)c1cn(S(=O)(=O)c2cccc([N+](=O)[O-])c2)c2cc(C)ccc12 | MTT | >200 µg/mL
CN(Cc1nc2ccccc2n1C(=O)OC(C)(C)C)C1CCCc2cccnc21 | MTT | 10 µM
O=C(c1cc2c([nH]c3ccccc32)c(-c2cccs2)n1)N1CCC(c2cccc(Cl)c2)CC1 | MTT | >400 µM
CCC(=O)c1cn(S(=O)(=O)c2cccc([N+](=O)[O-])c2)c2ccccc12 | MTT | >200 µg/mL
COc1cccc(C(=O)N2c3ccccc3NC(=O)CC2C)c1 | MTT / absorbance | >400 µM
Cc1cc(S(N)(=O)=O)ccc1NC(=O)COc1ccc(Cl)cc1Oc1ccc2ccccc2c1Br | MTT / absorbance | 48.05 µM
CCCCCC(O)/C=C/C=C\CCCCCC[C@@H]1C(=O)O[C@@](O)(CO)[C@H]1O | MTT | >200 µM
CC1CC(=O)Nc2ccccc2N1C(=O)c1ccccc1F | MTT / absorbance | >400 µM
CN1CCN(c2ccnc3nc(CN(CCCCN)Cc4ccccn4)[nH]c23)CC1 | MTT | >10 µM
CCC(=O)c1cn(S(=O)(=O)c2ccc(Cl)cc2)c2ccc(C#N)cc12 | MTT | >200 µg/mL
COc1cc([C@@H]2c3cc(OC)c(OC)cc3C[C@@H](C)[C@H]2C)ccc1O | MTT | 30 µM
N#Cc1ccc2c(c1)c(/C=N/NC(=O)c1ccccc1)cn2S(=O)(=O)c1cccc([N+](=O)[O-])c1 | MTT | 21.47 µg/mL
CC1CC(=O)Nc2ccccc2N1C(=O)c1cccc(F)c1 | MTT / absorbance | >400 µM
Cc1cc(S(N)(=O)=O)ccc1NC(=O)COc1ccc(F)cc1Oc1ccc2ccccc2c1C | MTT / absorbance | 56.05 µM
Cc1ccc(C(=O)N2c3ccccc3NC(=O)CC2C)cc1 | MTT / absorbance | >400 µM
Cc1cc(S(N)(=O)=O)ccc1NC(=O)COc1ccc(F)cc1Oc1ccc2ccccc2c1 | MTT / absorbance | 68.55 µM
C/C(=N\NC(=O)c1ccccc1)c1cn(S(=O)(=O)c2ccc(Cl)cc2)c2ccc(C#N)cc12 | MTT | 19.76 µg/mL
Cc1cc(C)cc(S(=O)(=O)c2c(C(=O)NCC(=O)NN)[nH]c3ccc(Cl)cc23)c1 | MTT | ≥200 µM
CC(=O)OCC1=C[C@H]2[C@@H]3C(C)(C)[C@]3(OC(C)=O)[C@H](OC(=O)CCCCn3ccc(=O)n(CCCCC(=O)O[C@@H]4[C@@H](C)[C@@]5(O)[C@@H](C=C(COC(C)=O)C[C@]6(O)C(=O)C(C)=C[C@@H]56)[C@@H]5C(C)(C)[C@]45OC(C)=O)c3=O)[C@@H](C)[C@]2(O)[C@@H]2C=C(C)C(=O)[C@@]2(O)C1 | MTT | >200 µM
O=C(O)CCC(=O)NCCCC[C@H](NC(=O)OCc1ccccc1)C(=O)OCc1ccccc1 | XTT | 250 µM
CCCOP(=O)(OC[C@H]1O[C@@H](n2cc(C)c(=O)[nH]c2=O)C[C@@H]1N=[N+]=[N-])OC(C)C(=O)OC | - | >100 µM
COc1ccc(S(=O)(=O)n2cc(/C(C)=N/NC(=O)c3ccccc3)c3ccc(C)cc32)cc1 | MTT | >200 µg/mL
O=C(O)CCC(=O)NCCCC[C@H](NC(=O)OCc1ccccc1)C(=O)N[C@@H](CCCCNC(=O)CCC(=O)O)C(=O)OCc1ccccc1 | XTT | 250 µM
Cc1ccc(C)c(C(Cl)S(=O)(=O)c2cc(C)cc[n+]2[O-])c1 | - | 1.4 µg/mL
COc1cc([C@H]2OC[C@@H]3[C@H]2CO[C@@H]3c2cc(OC)c(O)c(OC)c2)cc(OC)c1O | MTT | >200 µg/mL
C[C@H](CCC=C(CO)CO)[C@H]1CC[C@@]2(C)C3CC=C4[C@@H](CC[C@H](O)C4(C)C)[C@]3(C)C(=O)C[C@]12C | MTT | 327.3 µM
CCc1cc(-c2ccc(C)o2)n(-c2ccc3c(c2)nc(-c2ccccc2O)n3Cc2ccc(OC)c(O)c2)n1 | MTT | >22 µM
CN1CCN(c2ccnc3nc(CN(CCCCN)Cc4ncc(F)cc4F)[nH]c23)CC1 | MTT | >10 µM
Cc1ccc(S(=O)(=O)n2cc(/C=N/NC(=O)c3ccccc3)c3ccc(C)cc32)cc1 | MTT | 41.74 µg/mL
CCc1cc(-c2ccc(C)o2)n(-c2ccc3c(c2)nc(-c2cc(C(=O)N(C)C)ccc2O)n3Cc2ccc(OC)c(O)c2)n1 | MTT | 16 µM
O=C(N[C@@H](CCCCNC(=O)c1c(O)cccc1C(=O)O)C(=O)OCc1ccccc1)OCc1ccccc1 | XTT | >500 µM
CCc1cc(-c2ccc(C)o2)n(-c2ccc3c(c2)nc(-c2cc(C(=O)O)ccc2O)n3Cc2ccc(OC)c(O)c2)n1 | MTT | >46 µM
CN1CCN(c2ccnc3nc(CN(CCCCN)Cc4c(O)cc(Cl)cc4Cl)[nH]c23)CC1 | MTT | >10 µM
Cc1ccc(N2CCN(C(=O)c3cc4c([nH]c5ccccc54)c(-c4cccs4)n3)CC2)cc1 | MTT | >400 µM
CCC(=O)c1cn(S(=O)(=O)c2ccc(OC)cc2)c2ccc(C#N)cc12 | MTT | 100.2 µg/mL
CN(Cc1ncccc1CCC#N)Cc1nccc2ccccc12 | MTT | 10 µM
C=C(C)[C@@]12OC3(C)O[C@@H]1[C@@H]1[C@H](OC(=O)c4ccccc4)C4(C)O[C@@]5([C@@H]4OC(=O)c4ccccc4)[C@@H](O)[C@@H](C)C[C@H]5[C@@]1(O)[C@H](C)[C@@H]2O3 | MTT | >200 µg/mL
COC(=O)CC(O)(CC(=O)O)C(=O)NCCCC[C@H](NC(=O)OCc1ccccc1)C(=O)OCc1ccccc1 | XTT | 250 µM
O=C(c1cc2c([nH]c3ccccc32)c(-c2cccs2)n1)N1CCN(c2ccccc2)CC1 | MTT | >400 µM
CC1=C[C@H]2[C@@]3(O)[C@H](C)[C@@H](O)[C@]4(OC(=O)/C=C/c5ccccc5)[C@H]([C@@H]3C=C(CO)C[C@]2(O)C1=O)C4(C)C | MTT | >200 µM
Cc1cc(-c2ccco2)n(-c2ccc3c(c2)nc(COc2ccc(C(=N)N)cc2)n3C)n1 | MTT | 54 µM
C/C(=N\NC(=O)c1ccccc1)c1cn(S(=O)(=O)c2ccccc2)c2cc(C)ccc12 | MTT | >200 µg/mL
CCCCCCCCC(=O)O[C@@]12[C@H](OC(=O)CCCCCC3SCC4NC(=O)NC43)[C@@H](C)[C@@]3(O)[C@@H](C=C(CO)C[C@]4(O)C(=O)C(C)=C[C@@H]34)[C@@H]1C2(C)C | MTT | 129 µM
Cc1cc(S(N)(=O)=O)ccc1NC(=O)COc1ccc(F)cc1Oc1ccc2ccccc2c1Br | MTT / absorbance | 39.52 µM
COc1cc([C@H]2OC[C@H]3[C@@H]2CO[C@@H]3c2ccc(O)c(OC)c2)ccc1O | MTT | >200 µg/mL
CN(Cc1nc2ccccc2[nH]1)Cc1ncccc1CCC(=O)NCc1ccc(F)cc1 | MTT | >10 µM
COc1cc(C[C@H]2COC[C@@H]2Cc2ccc(O)c(OC)c2)ccc1O | MTT | >200 µg/mL
CCCCCCCCCCCC[C@@H]1OC(=O)[C@@H](C)[C@@H]1C(=O)O | MTT | >200 µM
COc1ccc(C(=O)N2c3ccccc3NC(=O)CC2C)cc1 | MTT / absorbance | >400 µM
COc1cc([C@H]2c3cc(O)c(OC)cc3C[C@@H](COC(C)=O)[C@@H]2CO)ccc1O | MTT | >200 µg/mL
CC1=C[C@H]2[C@@]3(O)[C@H](C)[C@@H](OC(=O)/C=C/c4ccccc4)[C@]4(OC(=O)/C=C/c5ccccc5)[C@H]([C@@H]3C=C(CO)C[C@]2(O)C1=O)C4(C)C | MTT | 26.1 µM
CCc1cc(-c2ccc(C(F)(F)F)o2)n(-c2ccc3c(c2)nc(-c2cc(C(=O)N4CCCC4)ccc2O)n3Cc2c[nH]c(=O)c(C)c2)n1 | MTT | 18 µM
CC(=O)Nc1ccc(S(=O)(=O)n2cc(/C=N/NC(=O)c3ccccc3)c3ccccc32)cc1 | MTT | 18.31 µg/mL
CC1CC(=O)Nc2ccccc2N1C(=O)c1ccccc1Cl | MTT / absorbance | >400 µM
Cc1cc(S(N)(=O)=O)ccc1NC(=O)COc1ccc(F)cc1Oc1cccc2ccccc12 | MTT / absorbance | 33.09 µM
COc1cc([C@H]2OC[C@H]3[C@@H]2CO[C@H]3c2ccc(O)c(OC)c2)ccc1O | MTT | >200 µg/mL
NC(=O)[C@H](CCCCNC(=O)c1c(O)cccc1C(=O)O)NC(=O)[C@H](CCCCNC(=O)c1cccc(O)c1C(=O)O)NC(=O)[C@H](CCCCNC(=O)c1cccc(O)c1C(=O)O)NC(=O)c1ccccc1 | XTT | 250 µM
C=C(C)[C@@H]1C[C@@H](C)[C@H](C)c2cc(O)c(C)cc21 | MTT | 61.5 µg/mL
Cc1ccc(C)c(C(C)S(=O)(=O)c2ccc(C)c[n+]2[O-])c1 | - | 2.8 µg/mL
C/C=C/C(=O)OCC1=C[C@H]2[C@@H]3C(C)(C)[C@]3(OC(=O)/C=C/C)[C@H](O)[C@@H](C)[C@]2(O)[C@@H]2C=C(C)C(=O)[C@@]2(O)C1 | MTT | 144 µM
CO[C@H]1C=C2C(C[C@H](O)[C@@H](O)C2(C)C)[C@]2(C)C(=O)C[C@]3(C)C([C@@](C)(O)C(=O)CCC(C)(C)OC(C)=O)[C@H](O)C[C@@]3(C)[C@H]12 | MTT | 216.7 µM
CCC(=O)c1cn(S(=O)(=O)c2ccc(C)cc2)c2cc(C)ccc12 | MTT | 51.5 µg/mL
CCCOP(=O)(OCC(=O)OCC)OC[C@H]1O[C@@H](n2cc(C)c(=O)[nH]c2=O)C[C@@H]1N=[N+]=[N-] | - | >100 µM
COC(=O)[C@H](C)NP(=O)(OC[C@H]1O[C@@H](n2cc(C)c(=O)[nH]c2=O)C[C@@H]1N=[N+]=[N-])OCC(Cl)(Cl)Cl | - | >100 µM
CC1CC(=O)Nc2ccccc2N1C(=O)c1ccc(F)cc1 | MTT / absorbance | >400 µM
Cc1ccc(C)c(CSc2c(Cl)ccc[n+]2[O-])c1 | - | 6.2 µg/mL
Cc1cn([C@H]2C[C@H](N=[N+]=[N-])[C@@H](COP(=O)(N[C@@H](C)C(=O)OCc3ccccc3)Oc3ccccc3)O2)c(=O)[nH]c1=O | - | >100 µM
CCC(=O)c1cn(S(=O)(=O)c2cccc([N+](=O)[O-])c2)c2cc(C)ccc12 | MTT | 101.8 µg/mL
O=[N+]([O-])c1ccc[n+]([O-])c1SCc1ccccc1 | - | 29 µg/mL
C=C(C)[C@@]12OC3(C)O[C@@H]1[C@@H]1[C@H](OC(=O)c4ccccc4)C4(C)O[C@@]5([C@@H]4OC(C)=O)[C@@H](OC(=O)c4ccccc4)[C@@H](C)C[C@H]5[C@@]1(O)[C@H](C)[C@@H]2O3 | MTT | >200 µg/mL
CCCCCC(O)/C=C/C=C\CCCCCC[C@@]1(O)C[C@H](C(=O)OC)[C@H](C(C)=O)O1 | MTT | >200 µM

A second listing of 10 rows from above:

structure,method,value
C=C(C)[C@@]12OC3(C)O[C@@H]1[C@@H]1[C@H](OC(=O)c4ccccc4)C4(C)O[C@@]5([C@@H]4OC(=O)c4ccccc4)[C@@H](O)[C@@H](C)C[C@H]5[C@@]1(O)[C@H](C)[C@@H]2O3,MTT,>200 µg/mL
CCCOP(=O)(OC[C@H]1O[C@@H](n2cc(C)c(=O)[nH]c2=O)C[C@@H]1N=[N+]=[N-])OC(C)C(=O)OC,-,>100 µM
COc1cc([C@H]2c3cc(O)c(OC)cc3C[C@@H](COC(C)=O)[C@@H]2CO)ccc1O,MTT,>200 µg/mL
Cc1ccc(S(=O)(=O)n2cc(/C=N/NC(=O)c3ccccc3)c3ccc(C)cc32)cc1,MTT,41.74 µg/mL
CCC(=O)c1cn(S(=O)(=O)c2ccc(OC)cc2)c2ccc(C#N)cc12,MTT,100.2 µg/mL
CCCCCCOC(=O)[C@H](C)NP(=O)(OC[C@H]1O[C@@H](n2cc(C)c(=O)[nH]c2=O)C[C@@H]1N=[N+]=[N-])OCC(Cl)(Cl)Cl,-,>100 µM
COc1cc([C@H]2OC[C@H]3[C@@H]2CO[C@@H]3c2ccc(O)c(OC)c2)ccc1O,MTT,>200 µg/mL
CN1CCN(c2ccnc3nc(CN(CCCCN)Cc4ncc(F)cc4F)[nH]c23)CC1,MTT,>10 µM
CN(Cc1nc2ccccc2[nH]1)Cc1ncccc1CCC(=O)NCc1ccc(F)cc1,MTT,>10 µM
O=[N+]([O-])c1ccc[n+]([O-])c1SCc1ccccc1,-,29 µg/mL